Pooled drug test results. Numbers come from NIAID ChemDB, via PubChem.

Common to all: tests in culture; species: Aspergillus fumigatus

Zone: diameter of growth inhibition. a–b is a range or a potency band. Neighbouring rows are from separate reports. MIC50, MIC90 and the like: level of inhibition, or share of isolates inhibited. Blank or dashed fields: not listed here. Inhibition is in % at the dose shown (toxicity tests: loss of growth or viability).

compound	strain or isolate	measure	dose	read by	value
CCc1ccc(O)c(OC)c1		MIC50		agar	74 µg/mL
Nc1[nH]c(=O)ncc1F		MIC50			>64 µg/mL
CN(C/C=C/C#CC(C)(C)C)Cc1cccc2ccccc12	NFI 0239	MFC			4 µg/mL
CC(=O)OC[C@H]1O[C@@H](n2[nH]c(-c3ccccc3)[n+](/N=C/c3ccc(Cl)cc3)c2=S)[C@H](OC(C)=O)[C@@H](OC(C)=O)[C@@H]1OC(C)=O		zone	1 mg/mL	agar diffusion / agar	1–5 mm
C[C@H]1[C@H](O)[C@@H](C)/C=C/C=C/C=C/C=C/C=C/C=C/C=C/[C@H](O[C@@H]2O[C@H](C)[C@@H](O)[C@H](N)[C@@H]2O)C[C@@H]2O[C@](O)(C[C@@H](O)C[C@@H](O)CC[C@H](O)[C@@H](O)C[C@@H](O)CC(=O)O[C@H]1C)C[C@H](O)[C@H]2C(=O)O	60 isolates	MIC50			0.5 µg/mL
C[C@@H](c1nc(-c2ccc(C#N)cc2)cs1)[C@](O)(Cn1cncn1)c1cc(F)ccc1F		MIC90			0.5–2 µg/mL
CC(=O)OC[C@H]1O[C@@H](Sc2nnc(-c3cccnc3)n2/N=C/c2ccc(Cl)cc2)[C@H](OC(C)=O)[C@@H](OC(C)=O)[C@@H]1OC(C)=O		zone	1 mg/mL	agar diffusion / agar	1–5 mm
CCCCCOc1ccc(-c2ccc(-c3ccc(C(=O)N[C@H]4C[C@@H](O)[C@@H](O)NC(=O)[C@@H]5[C@@H](O)[C@@H](C)CN5C(=O)[C@H]([C@H](C)O)NC(=O)[C@H]([C@H](O)[C@@H](O)c5ccc(O)cc5)NC(=O)[C@@H]5C[C@@H](O)CN5C(=O)[C@H]([C@H](C)O)NC4=O)cc3)cc2)cc1		MIC50			0.015 µg/mL
COc1ccc(/C=N/n2c(S[C@@H]3O[C@H](COC(C)=O)[C@@H](OC(C)=O)[C@H](OC(C)=O)[C@H]3OC(C)=O)nnc2-c2cccnc2)cc1		zone	1 mg/mL	agar diffusion / agar	1–5 mm
C[C@H]1[C@H](O)[C@@H](C)/C=C/C=C/C=C/C=C/C=C/C=C/C=C/[C@H](O[C@@H]2O[C@H](C)[C@@H](O)[C@H](N)[C@@H]2O)C[C@@H]2O[C@](O)(C[C@@H](O)C[C@@H](O)CC[C@H](O)[C@@H](O)C[C@@H](O)CC(=O)O[C@H]1C)C[C@H](O)[C@H]2C(=O)O	AB16.4	inhibition	1 µg/mL	agar	0%
CN(C)CCCC1(c2ccc(F)cc2)OCc2cc(C#N)ccc21	10 clinical isolates	MFC			625–2500 µg/mL
COc1ccc(/C=N/[n+]2c(-c3ccccc3)[nH]n([C@@H]3O[C@H](COC(C)=O)[C@@H](OC(C)=O)[C@H](OC(C)=O)[C@H]3OC(C)=O)c2=S)cc1		zone	2.5 mg/mL	agar diffusion / agar	1–5 mm
CCC(C)n1ncn(-c2ccc(N3CCN(c4ccc(OC[C@H]5CO[C@](Cn6cncn6)(c6ccc(Cl)cc6Cl)O5)cc4)CC3)cc2)c1=O	NFI 4001	MFC			>4 µg/mL
OC[C@H]1O[C@@H](n2[nH]c(-c3cccnc3)nc2=S)[C@H](O)[C@@H](O)[C@@H]1O		zone	5 mg/mL	agar diffusion / agar	1–5 mm
CC[C@@H]([C@H](C)O)n1ncn(-c2ccc(N3CCN(c4ccc(OC[C@@H]5CO[C@@](Cn6cncn6)(c6ccc(F)cc6F)C5)cc4)CC3)cc2)c1=O		MIC90			0.25–1 µg/mL
C=CCc1ccc(O)c(OC)c1		MIC50		agar	49 µg/mL